Results of unrelated studies side by side (data: NIAID ChemDB).

All rows: tests in culture; species: Mycobacterium tuberculosis

An empty or dashed field is not shown. A number after MIC or MFC names an inhibition level or a share of isolates. Inhibition is in % at the dose shown (toxicity tests: loss of growth or viability). ECn is the concentration giving n% inhibition of infection, replication or growth. Lines come from different laboratories, so protocols vary. MIC bound comes from a single tested concentration.

smiles,strain or isolate,conditions,read by,changes,dose,cells,measure,result
CC(=O)c1ccccc1Sc1nnc(N2CCN(c3nc(N4CCN(c5ccccc5)CC4)c4ccccc4n3)CC2)o1,H37Rv,,BACTEC / fluorescence,,6.25 µg/mL,,inhibition,0%
C=CCn1c(-c2ccc(N=Nc3c(C)[nH]n(-c4ccccc4)c3=O)cc2)n[nH]c1=S,H37Rv,,,,,,MIC,>12.5 µg/mL
CC(C)C[C@@H]1NC(=O)[C@H](Cc2c[nH]c3ccccc23)NC(=O)[C@@H](CCCCN)NC(=O)[C@H](CC(N)=O)NC(=O)[C@H](C(C)C)NC(=O)[C@@H](CC(C)C)NC1=O,H37Ra,,turbidity,,,,MIC,0.37 µM
Cc1oc(C)c2c(N=Nc3ccc([N+](=O)[O-])cc3[N+](=O)[O-])c3ccccc3c(O)c12,H37Rv,,BACTEC,,,,MIC bound,≤12.5 µg/mL
CCOC(=O)/C(N=Nc1ccc(-c2n[nH]c(=S)n2-c2ccccc2)cc1)=C(\C)O,H37Rv,,,,,,MIC,>12.5 µg/mL
Cc1ccc(-c2cc(CN3CCSCC3)c(C)n2-c2ccc(F)cc2)cc1,H37Rv,,,,,,MIC90,17.8 µM
O=[N+]([O-])c1cn2c(n1)OC[C@@H](OCc1ccc(N3CCC(Oc4ccc(OC(F)(F)F)cc4)CC3)cc1)C2,,,resazurin,,,,MIC90,0.02 µM
Cc1cc2c(c3c1c(=O)c1ccccc1n3C)C=CC(C)(C)O2,H37Rv,,BACTEC,,12.5 µg/mL,,inhibition,98%
O=[N+]([O-])c1cn2c(n1)OC[C@@H](OCc1ccc(CNc3ccc(OC(F)(F)F)cc3)cc1)C2,,,resazurin,,,,MIC90,0.06 µM
O=C1c2ccccc2C(=O)c2c1c(O)cc1oc(-c3ccccc3)nc21,H37Rv,,resazurin,,6.25 µg/mL,,inhibition,-3%
Cc1[nH][nH]c(=O)c1N=Nc1ccc(-c2n[nH]c(=O)n2-c2ccccc2)cc1,H37Rv,,,,12.5 µg/mL,,inhibition,0%
COc1cc(O)c2c(c1)C(=O)C1=C(C2=O)C(C)OC(C)C1O,H37Rv,,BACTEC,,,,MIC bound,≤12.5 µg/mL
O=[N+]([O-])c1cn2c(n1)OC[C@@H](OCc1ccnc(N3CCC(Oc4ccc(C(F)(F)F)nc4)CC3)c1)C2,,,low oxygen,,,,MIC90,8.4 µM
N#Cc1ccc(Sc2nnc(N3CCN(c4nc(N5CCN(c6ccccc6)CC5)c5ccccc5n4)CC3)o2)cc1,H37Rv,,BACTEC / fluorescence,,6.25 µg/mL,,inhibition,0%
O=c1[nH]c2c([N+](=O)[O-])cccc2c(O)c1N=Nc1cccc(Cl)c1,H37Rv,,resazurin,,,,MIC,<6.25 µg/mL
O=[N+]([O-])c1cn2c(n1)OC[C@@H](OCc1ccc(C#Cc3ccc(C(F)(F)F)cn3)cn1)C2,,,resazurin,,,,MIC90,0.04 µM
Cn1c(=O)c(N=Nc2ccccc2[N+](=O)[O-])c(O)c2ccccc21,H37Rv,,resazurin,,,,MIC,<6.25 µg/mL
CO[C@H]1/C=C/O[C@@]2(C)Oc3c(C)c(O)c4c(=O)c(c5oc6cc(N7CCN(C(C)C)CC7)cc(=O)c6nc5c4c3=C2O)NC(=O)/C(C)=C\C=C\[C@H](C)[C@H](O)[C@@H](C)[C@@H](O)[C@@H](C)[C@H](OC(C)=O)[C@@H]1C,2219 (rifampin-resistant),,,,,,MIC,0.2 µg/mL
Cc1ccc(-n2c(=S)oc3ccc(Br)cc3c2=S)cc1,My 331/88,14 d,,,,,MIC,0.5 µM
CC(=O)OC(C)(C)/C=C/C(=O)C(C)(O)C1C(O)CC2(C)C3CC=C4C(CC(O)C(O)C4(C)C)C3(C)C(=O)CC12C,H37Rv,,BACTEC,,12.5 µg/mL,,inhibition,-10%
Cc1cc(C2=NNC(c3ccccc3)C2)ccc1O,H37Rv,,,,6.25 µg/mL,,inhibition,88%
Cc1nc2scc(-c3ccco3)c2c(=O)n1/N=C/c1ccc(Cl)cc1,CNCTC MY331/88,,,,,,MIC,10 µM
Cn1c(=O)c(N=Nc2ccc([N+](=O)[O-])cc2)c(O)c2ccccc21,H37Rv,,resazurin,,,,MIC,>6.25 µg/mL
COc1ccccc1Sc1nnc(N2CCN(c3nc(N4CCN(c5ccccc5)CC4)c4ccccc4n3)CC2)o1,H37Rv,,BACTEC / fluorescence,,6.25 µg/mL,,inhibition,0%
CNc1ccccc1S(=O)(=O)c1ccccc1[N+](=O)[O-],H37Rv,,BACTEC,,,,MIC bound,>12.5 µg/mL
O=[N+]([O-])c1cn2c(n1)OC[C@@H](OCc1ccc(Cc3ccc(C(F)(F)F)nc3)cc1)C2,,,low oxygen,,,,MIC90,1.5 µM
CCc1ccc(-c2cc(CN3CCOCC3)c(C)n2-c2ccc(F)cc2)cc1,H37Rv,,,,,,MIC,0.04 µM
COc1ccc2oc(=O)n(-c3cccc(F)c3)c(=S)c2c1,My 331/88,21 d,,,,,MIC,32 µM
CC(C)C[C@@H]1NC(=O)[C@H](Cc2c[nH]c3ccccc23)NC(=O)[C@@H](CCCN)NC(=O)[C@H](CC(N)=O)NC(=O)[C@H](C(C)C)NC(=O)[C@@H](CC(C)C)NC1=O,CDC1551,,turbidity,,,,MIC90,2.97 µM
Cc1ccc(-c2cc(CN3CCOCC3)c(C)n2-c2ccc(F)cc2)cc1,H37Rv DR3,,,V681I S87P,,,MIC,5.4 µM
CCOc1ccc(/C=N/NC(=O)c2c(-c3ccccc3)noc2C)cc1,H37Rv,,BACTEC,,12.5 µg/mL,,inhibition,-27%
NNC(=O)c1ccncc1,H37Rv,,,,,,MIC90,>128 µM
CC(C)C[C@@H]1NC(=O)[C@H](Cc2c[nH]c3ccccc23)NC(=O)[C@H](CCCCN)NC(=O)[C@H](CC(N)=O)NC(=O)[C@H](C(C)C)NC(=O)[C@@H](CC(C)C)NC1=O,HN353,,turbidity,,,,EC50,>30 µM
Fc1cccc(-n2c(=S)oc3ccc(F)cc3c2=S)c1,My 331/88,14 d,,,,,MIC,16 µM
Cc1cc(C(=O)/C=C/c2ccc(Cl)cc2)ccc1O,H37Rv,,,,6.25 µg/mL,,inhibition,90%
Cc1ccccc1Sc1nnc(N2CCN(c3nc(N4CCN(c5ccccc5)CC4)c4ccccc4n3)CC2)o1,H37Rv,,BACTEC / fluorescence,,6.25 µg/mL,,inhibition,0%
CN(C)c1ccc(NC2=C(Cl)C(=O)c3ccccc3C2=O)cc1,H37Rv,,resazurin,,,,MIC bound,>6.25 µg/mL
CCn1cc(C(=O)O)c(=O)c2ccc(C)nc21,H37Rv,,,gyrA mutation D94G gyrB mutation D500N,,,MIC90,>50 µM
O=c1c2ccccc2sc2cccc(NCCCN3CCN(CCCNc4cccc5sc6ccccc6c(=O)c45)CC3)c12,H37Rv,,BACTEC,,,,MIC bound,>12.5 µg/mL
NNC(=O)c1ccncc1,H37Ra,,turbidity,,,,MIC90,0.12 µM
Cn1c(=O)c2nc(-c3ccccc3)nnc2n(C)c1=O,H37Rv,,,,,VERO,MIC,1.56 µg/mL
O=Cc1ccc(Sc2nnc(N3CCN(c4nc(N5CCN(c6ccccc6)CC5)c5ccccc5n4)CC3)o2)cc1,H37Rv,,agar / visual reading,,25 µg/mL,,inhibition,91%
CO[C@H]1/C=C/O[C@@]2(C)Oc3c(C)c(O)c4c(O)c(c(/C=N/N5CCN(C)CC5)c(O)c4c3C2=O)NC(=O)/C(C)=C\C=C\[C@H](C)[C@H](O)[C@@H](C)[C@@H](O)[C@@H](C)[C@H](OC(C)=O)[C@@H]1C,H37Rv,,turbidity,,,,EC50,0.4 µM
Cc1cc(C2=NNC(c3ccccc3Cl)C2)ccc1O,H37Rv,,,,6.25 µg/mL,,inhibition,83%
COc1cc(/C=N/NC(=O)C[N+](C)(C)C)cc(I)c1O,H37Rv,,BACTEC,,12.5 µg/mL,,inhibition,-2%
NC(=O)c1cnccn1,TB189,7 d,,,,,EC50,<800 µg/mL
C[C@]1(COc2ccc(N3CCC(Oc4ccc(OC(F)(F)F)cc4)CC3)cc2)Cn2cc([N+](=O)[O-])nc2O1,ATCC 35822 (H37RV-H-R),,,,,,MIC,0.012 µg/mL
CCOC(=O)/C(N=Nc1ccc(-c2n[nH]c(=O)n2-c2ccccc2)cc1)=C(\C)O,H37Rv,,,,12.5 µg/mL,,inhibition,0%
Cc1cccc(N=Nc2c(O)c3cccc([N+](=O)[O-])c3[nH]c2=O)c1C,H37Rv,,resazurin,,,,MIC,>6.25 µg/mL
Cc1ccc(/C=N/n2c(C)nc3scc(-c4ccco4)c3c2=O)cc1,CNCTC MY331/88,,,,,,MIC,42 µM
Cn1c(=O)c(N=Nc2ccc(Cl)cc2)c(O)c2ccccc21,H37Rv,,resazurin,,6.25 µg/mL,,inhibition,38%
CO/N=C1\CN(c2nc3c(cc2F)c(=O)c(C(=O)O)cn3C2CC2)CC1CN,250 isolates,,,,,,MIC90,8 µg/mL
CCc1ccc(-n2c(-c3ccc(OC)cc3)cc(CN3CCOCC3)c2C)cc1,H37Rv,,,,,,MIC90,40.63 µM
CC(C)C[C@@H]1NC(=O)[C@H](Cc2c[nH]c3ccccc23)NC(=O)[C@@H](CCCN=C(N)N)NC(=O)[C@H](CC(N)=O)NC(=O)[C@H](C(C)C)NC(=O)[C@@H](CC(C)C)NC1=O,H37Rv,,turbidity,,,,MIC90,2.97 µM
CC(=O)Nn1c(C)nc2scc(-c3ccco3)c2c1=O,CNCTC MY331/88,,,,,,MIC,78 µM
CO[C@H]1/C=C/O[C@@]2(C)Oc3c(C)c(O)c4c(O)c(c5c(c4c3C2=O)NC2(CCN(CC(C)C)CC2)N=5)=NC(=O)/C(C)=C\C=C\[C@H](C)[C@H](O)[C@@H](C)[C@@H](O)[C@@H](C)[C@H](OC(C)=O)[C@@H]1C,2219 (rifampin-resistant),,,,,,MIC,0.2 µg/mL
Cc1c(F)c(N2CCNC(C)C2)cc2c1c(=O)c(C(=O)O)cn2C1CC1,44 isolates (resistant),,,,,,MIC50,1 µg/mL
NNC(=O)c1nc(N)n[nH]1,H37Rv,,BACTEC,,,,MIC bound,>12.5 µg/mL
CC(=O)c1ccccc1NNC(=O)N1CCN(c2nc(N3CCN(c4ccccc4)CC3)c3ccccc3n2)CC1,H37Rv,,BACTEC / fluorescence,,6.25 µg/mL,,inhibition,0%
CC(C)=CCOc1c2ccoc2cc2oc(=O)ccc12.NNC(=O)c1ccncc1,H37Rv clinical isolate CRY4,,agar,Ethambutol-resistant,,,MIC100,3.12 µg/mL
Cc1[nH]n(-c2ccccc2)c(=O)c1N=Nc1ccc(-c2n[nH]c(=S)o2)cc1,H37Rv,,,,,,MIC,<12.5 µg/mL
O=S(=O)(/N=C1C=C/C(=N\S(=O)(=O)c2ccccc2)C2C\1C2(c1ccccc1)c1ccccc1)c1ccccc1,H37Rv,,BACTEC,,,,MIC bound,>12.5 µg/mL
O=[N+]([O-])c1cccc(Sc2nnc(N3CCN(c4nc(N5CCN(c6ccccc6)CC5)c5ccccc5n4)CC3)o2)c1,H37Rv,,BACTEC / fluorescence,,,,MIC,>6.25 µg/mL
COc1ccc(C2CC(c3ccc(O)c(C)c3)=NN2)cc1OC,H37Rv,,,,,,MIC,>6.25 µg/mL
CCOC(=O)C[N+]12CCC34c5cc(OC)c(OC)cc5N5C(=O)CC6OCC=C(C1)C(CC32)C6C54.[Cl-],H37Rv,,BACTEC,,,,MIC bound,>12.5 µg/mL
Cc1[nH]n(-c2ccccc2)c(=O)c1N=Nc1ccc(C(=O)N/N=C/c2ccc(F)cc2)cc1,H37Rv,,,,,,MIC,>12.5 µg/mL
CCCCN=C1OCc2[nH][nH]c(=O)c21,H37Rv,,BACTEC,,12.5 µg/mL,,inhibition,1%
CCn1c(-c2ccc(N=Nc3c(C)[nH][nH]c3=O)cc2)n[nH]c1=S,H37Rv,,,,,,MIC,>12.5 µg/mL
COCCn1c2nc(=O)n(-c3ccccc3)c(=O)c-2nc2ccccc21,H37Rv,,BACTEC,,12.5 µg/mL,,inhibition,10%
Cc1nc2scc(-c3ccco3)c2c(=O)n1NC(=O)C1CCCCC1,CNCTC MY331/88,,,,,,MIC,105 µM
COc1ccc(-n2sc3ncc(-c4ccccc4)cc3c2=O)cc1,H37Rv,,resazurin,,6.25 µg/mL,,inhibition,63%
Cc1cccc2c(O)c(N=Nc3cccc(Cl)c3)c(=O)[nH]c12,H37Rv,,resazurin,,,,MIC,>6.25 µg/mL
CCc1c(C)[nH]c(-c2csc(N)n2)c1C.Cl,H37Rv,,BACTEC,,12.5 µg/mL,,inhibition,41%
O=C(NNc1ccccc1)N1CCN(c2nc(N3CCN(c4ccccc4)CC3)c3ccccc3n2)CC1,H37Rv,,agar / visual reading,,,,MIC,100 µg/mL
COc1ccc(-c2oc(C=Nc3ccccc3)c([N+](=O)[O-])c2-c2ccc(OC)c(OC)c2)cc1OC,H37Rv,,BACTEC,,,,MIC bound,>12.5 µg/mL
CCOC(=O)c1cn(CC)c2c(cc([N+](=O)[O-])c3cccnc32)c1=O,H37Rv,,,gyrA mutation S91P,,,MIC90,>50 µM
O=C1C=CC(=Nc2ccc(O)cc2)C=C1,H37Rv,,BACTEC,,,,MIC bound,>12.5 µg/mL
O=c1oc2ccc(F)cc2c(=S)n1-c1ccc(C(F)(F)F)cc1,My 331/88,14 d,,,,,MIC,2 µM

The last 8 rows once more:

smiles,strain or isolate,conditions,read by,changes,dose,cells,measure,result
COc1ccc(-n2sc3ncc(-c4ccccc4)cc3c2=O)cc1,H37Rv,,resazurin,,6.25 µg/mL,,inhibition,63%
Cc1cccc2c(O)c(N=Nc3cccc(Cl)c3)c(=O)[nH]c12,H37Rv,,resazurin,,,,MIC,>6.25 µg/mL
CCc1c(C)[nH]c(-c2csc(N)n2)c1C.Cl,H37Rv,,BACTEC,,12.5 µg/mL,,inhibition,41%
O=C(NNc1ccccc1)N1CCN(c2nc(N3CCN(c4ccccc4)CC3)c3ccccc3n2)CC1,H37Rv,,agar / visual reading,,,,MIC,100 µg/mL
COc1ccc(-c2oc(C=Nc3ccccc3)c([N+](=O)[O-])c2-c2ccc(OC)c(OC)c2)cc1OC,H37Rv,,BACTEC,,,,MIC bound,>12.5 µg/mL
CCOC(=O)c1cn(CC)c2c(cc([N+](=O)[O-])c3cccnc32)c1=O,H37Rv,,,gyrA mutation S91P,,,MIC90,>50 µM
O=C1C=CC(=Nc2ccc(O)cc2)C=C1,H37Rv,,BACTEC,,,,MIC bound,>12.5 µg/mL
O=c1oc2ccc(F)cc2c(=S)n1-c1ccc(C(F)(F)F)cc1,My 331/88,14 d,,,,,MIC,2 µM